Compound potency records, mixed from different reports. Data source: NIAID ChemDB in PubChem.

Shared fields: host cell toxicity; cells: CEM; endpoint: CC50

CCn: concentration that lowers growth or viability of the cells by n%. Rows are shuffled and stem from different studies.

C=C(C)[C@@H]1CC[C@]2(C(=O)NCCCCCCCC(=O)NCCC(=O)O)CC[C@]3(C)[C@H](CC[C@@H]4[C@@]5(C)CC[C@H](O)C(C)(C)[C@@H]5CC[C@]43C)[C@@H]12 ; value: >3 µM
O=C1N=C2SC=C(NC(=S)Nc3ccccc3)N2NC12c1ccccc1-c1ccccc12 ; value: 95 µM
CC(C)C[C@H](NC(=O)c1ccccc1SSc1ccccc1C(=O)N[C@@H](CC(C)C)C(=O)OCc1ccccc1)C(=O)OCc1ccccc1 ; value: 73 µM
CCN(CC)c1ccc(/C=N/NC(=O)Cn2nc(-c3ccccc3)c3c2-c2ccccc2S(=O)(=O)N3C)cc1 ; value: >100 µM
Cc1c(Cc2ccc3ccccc3c2)n(COCc2ccccc2)c(=O)[nH]c1=O ; value: 24.3 µM
Cc1ccc[n+]([O-])c1SC(C)c1ccccc1 ; method: cell count ; value: 60 µg/mL
Cc1cn([C@@H]2O[C@@H]3CN[C@@]4(O)CS(=O)(=O)O[C@@]34[C@H]2O[Si](C)(C)C(C)(C)C)c(=O)[nH]c1=O ; value: >250 µM
C=C(C)[C@@H]1CC[C@]2(C(=O)NCCCCCCC(=O)O)CC[C@]3(C)[C@H](CC[C@@H]4[C@@]5(C)CC[C@H](O)C(C)(C)[C@@H]5CC[C@]43C)[C@@H]12 ; value: >3 µM
O=C(O)C(=O)/C(=C\c1ccccc1)C(=O)c1ccccc1 ; method: MTT ; value: >119 µM
CCCCCC[n+]1ccc2cc(OC)c(OC)c3c2c1C=CN3 ; value: 5.3 µM
Cc1c(OC(=O)CCCCOc2ccc(C[C@H](N)C(=O)O)cc2)cccc1C(=O)N[C@@H](CSc1ccccc1)[C@H](O)CN1C[C@H]2CCCC[C@H]2C[C@H]1C(=O)NC(C)(C)C ; method: MTT ; value: >100 µM
O=C(O)CSC1=NNC2(C(=O)N1)c1ccccc1-c1ccccc12 ; value: 55 µM
CN1c2c(-c3ccccc3)nn(CC(=O)N/N=C/c3ccc([N+](=O)[O-])cc3)c2-c2ccccc2S1(=O)=O ; value: >100 µM
CN(C)c1ccnc(SCc2ccc(Cl)cc2)c1C#N ; method: cell count ; value: >100 µg/mL
O=C(c1cccc(I)c1)c1ccc2[nH]c(=O)sc2c1 ; value: >8 µg/mL
Cc1ccc(C)c(C(C)S(=O)(=O)c2c(Cl)ccc[n+]2[O-])c1 ; method: cell count ; value: 1.7 µg/mL
C=C(C)[C@@H]1CC[C@]2(C(=O)NCCCCCCCC(=O)NC(F)CC(=O)O)CC[C@]3(C)[C@H](CC[C@@H]4[C@@]5(C)CC[C@H](O)C(C)(C)[C@@H]5CC[C@]43C)[C@@H]12 ; value: >3 µM
Cc1ccc(C)c(C(C)S(=O)c2cccc[n+]2[O-])c1 ; method: cell count ; value: 1.6 µg/mL
CC(C)(C)NC(=O)[C@@H]1CN(Cc2cccnc2)CCN1C[C@@H](O)C[C@@H](Cc1ccccc1)C(=O)N[C@H]1c2ccccc2C[C@H]1OC(=O)CCCCOc1ccc(C[C@H](N)C(=O)O)cc1 ; method: MTT ; value: >100 µM
COc1ccc(Br)c(CS(=O)(=O)c2cccc[n+]2[O-])c1 ; method: cell count ; value: 15 µg/mL
COc1cc2cc[n+](C)c3c2c(c1OC)NC=C3 ; value: 60.3 µM
COc1ccc2c(c1)OC[C@@H]1c3cc(O)c(OCc4ccccc4)cc3O[C@H]21 ; value: 40.5 µM
O=C(Cn1cnc2c(nnn2-c2ccccc2)c1=O)NCc1ccccc1F ; method: MTT ; value: 15 µM
COc1ccc(C)cc1CS(=O)(=O)c1cccc[n+]1[O-] ; method: cell count ; value: 43 µg/mL
CCc1c(Cc2ccc3ccccc3c2)n(COC)c(=O)[nH]c1=O ; value: 92.9 µM
CCO[C@]12CS(=O)(=O)O[C@@]13[C@@H](CN2)O[C@@H](n1cc(C)c(=O)[nH]c1=O)[C@@H]3OC(C)=O ; value: >250 µM
O=C(c1cccc([N+](=O)[O-])c1)c1ccc2[nH]c(=O)sc2c1 ; value: 4.8 µg/mL
C=CCNC(=O)NC1=CSC2=NC(=O)C3(NN12)c1ccccc1-c1ccccc13 ; value: 50 µM
CCCc1c(Cc2cccc3ccccc23)n(COCc2ccccc2)c(=O)[nH]c1=O ; value: 20.7 µM
Cc1ccc(CS(=O)c2cccc[n+]2[O-])cc1C ; method: cell count ; value: 14 µg/mL
CC(C)C[C@H](NC(=O)c1ccccc1SSc1ccccc1C(=O)N[C@@H](CC(C)C)C(=O)OC(C)(C)C)C(=O)OC(C)(C)C ; value: >100 µM
Cc1cn([C@@H]2O[C@@H]3CN[C@@]4(OCCOc5ccccc5)CS(=O)(=O)O[C@@]34[C@H]2O)c(=O)[nH]c1=O ; value: >250 µM
CCCC[C@H](NC(=O)c1ccccc1SSc1ccccc1C(=O)N[C@@H](CCCC)C(=O)OC(C)(C)C)C(=O)OC(C)(C)C ; value: 16 µM
O=C1NC(SC(SC2=NNC3(C(=O)N2)c2ccccc2-c2ccccc23)=C(SC2=NNC3(C(=O)N2)c2ccccc2-c2ccccc23)SC2=NNC3(C(=O)N2)c2ccccc2-c2ccccc23)=NNC12c1ccccc1-c1ccccc12 ; value: 79 µM
CC(C)C[C@@H](CO)NC(=O)c1ccccc1SSc1ccccc1C(=O)N[C@H](CO)CC(C)C ; value: 12.4 µM
S=C1NNC2(C(=S)N1)c1ccccc1-c1ccccc12 ; value: 110 µM
CN1c2c(-c3ccccc3)nn(CC(=O)N/N=C/c3c(Cl)cccc3Cl)c2-c2ccccc2S1(=O)=O ; value: 78.6 µM
Cc1ccc[n+]([O-])c1S(=O)(=O)C(C)c1ccccc1Cl ; method: cell count ; value: 38 µg/mL
CC(C)C(N)C(=O)O[C@@H](C[C@@H](Cc1ccccc1)C(=O)N[C@H]1c2ccccc2C[C@H]1O)CN1CCN(Cc2cccnc2)C[C@H]1C(=O)NC(C)(C)C ; method: MTT ; value: >100 µM
CCc1c(Cc2cccc3ccccc23)n(COCCO)c(=O)[nH]c1=O ; value: 125 µM
COc1cccnc1SCc1ccccc1 ; method: cell count ; value: 87 µg/mL
COC(=O)CC[C@H](CC#N)NC(=O)c1ccccc1SSc1ccccc1C(=O)N[C@@H](CC#N)CCC(=O)OC ; value: 69 µM
CCCCCCCCCCCN1C=Cc2cc(OC)c(O)c3c2c1cc[n+]3CCCCCCCCCCC ; value: 3.8 µM
CN1c2c(-c3ccccc3)nn(CC(=O)N/N=C/c3ccc(O)cc3O)c2-c2ccccc2S1(=O)=O ; value: <1 µM
Cc1ccc(CS(=O)(=O)c2cccc[n+]2[O-])cc1 ; method: cell count ; value: 24 µg/mL
O=C1c2c(O)cc(O)cc2OC12c1c(cc(O)c3c1O[C@H](c1ccc(O)cc1)[C@@H](O)C3)O[C@@H]2c1ccc(O)cc1 ; value: >50 µM
O=C(c1cccc(F)c1)c1ccc2[nH]c(=O)sc2c1 ; value: >200 µg/mL
CCOc1ccccc1CS(=O)c1cccc[n+]1[O-] ; method: cell count ; value: 69 µg/mL
CCCc1c(Cc2ccc3ccccc3c2)n(COCc2ccccc2)c(=O)[nH]c1=O ; value: 19 µM
C=CCO[C@]12CS(=O)(=O)O[C@@]13[C@@H](CN2)O[C@@H](n1cc(C)c(=O)[nH]c1=O)[C@@H]3O[Si](C)(C)C(C)(C)C ; value: 57.8 µM
CCOc1ccccc1CS(=O)(=O)c1cccc[n+]1[O-] ; method: cell count ; value: 37 µg/mL
CCc1c(Cc2cccc3ccccc23)n(COCc2ccccc2)c(=O)[nH]c1=O ; value: 20.4 µM
COc1ccc[n+]([O-])c1SCc1cc(C)ccc1C ; method: cell count ; value: 70 µg/mL
Cc1cccc(C(=O)c2ccc3c(c2)sc(=O)n3C)c1 ; value: <0.32 µg/mL
C=C(C)[C@@H]1CC[C@]2(C(=O)NCCCCCCCC(=O)N[C@@H](CCCCN)C(=O)O)CC[C@]3(C)[C@H](CC[C@@H]4[C@@]5(C)CC[C@H](O)C(C)(C)[C@@H]5CC[C@]43C)[C@@H]12 ; value: >3 µM
Cc1cccc(NC(=O)CN2CCN(C(=O)C3CCCN(C(=O)c4ccc(F)cc4)C3)CC2)c1C ; method: MTT ; value: >65 µM
CC(C)(C)NC(=O)[C@@H]1CN(Cc2cccnc2)CCN1C[C@H](C[C@@H](Cc1ccccc1)C(=O)N[C@H]1c2ccccc2C[C@H]1OC(=O)CCCCOc1ccc(C[C@H](NC(=O)OC(C)(C)C)C(=O)O)cc1)OC(=O)CCCCOc1ccc(C[C@H](NC(=O)OC(C)(C)C)C(=O)O)cc1 ; method: MTT ; value: >100 µM
CC(C)C[C@@H](/C=C/C(=O)O)NC(=O)c1ccccc1SSc1ccccc1C(=O)N[C@H](/C=C/C(=O)O)CC(C)C ; value: 53 µM
CCCC(Sc1cccc[n+]1[O-])c1cc(C)ccc1C ; method: cell count ; value: 9.2 µg/mL
CCOC(=O)N1CCC(NC(=O)CN(C)C(C)c2ccc(F)cc2)CC1 ; method: MTT ; value: >91.3 µM
O=S(=O)(Cc1ccccc1)c1c(Cl)ccc[n+]1[O-] ; method: cell count ; value: 1.5 µg/mL
COc1cc2ccnc3c2c(c1OCCCCCCOc1c(OC)cc2ccnc4c2c1N(C)C=C4)N(C)C=C3 ; value: <1 µM
Cc1ccc(CS(=O)(=O)c2cccc[n+]2[O-])cc1[N+](=O)[O-] ; method: cell count ; value: 5.8 µg/mL
CCCCN1C=Cc2nccc3cc(OC)c(OC)c1c23 ; value: 5.3 µM
Cc1ccc(CS(=O)(=O)c2c(C)ccc[n+]2[O-])c(C)c1 ; method: cell count ; value: 11 µg/mL
Cc1cn([C@@H]2O[C@@H]3CN[C@@]4(OCc5ccccc5)CS(=O)(=O)O[C@@]34[C@H]2O)c(=O)[nH]c1=O ; value: >250 µM
COc1ccc(CSc2cc(C(C)(C)C)cc[n+]2[O-])cc1 ; method: cell count ; value: 48 µg/mL
CCCc1c(Cc2cccc3ccccc23)n(COC)c(=O)[nH]c1=O ; value: 128 µM
Cc1cccc(CS(=O)c2cccc[n+]2[O-])c1 ; method: cell count ; value: 37 µg/mL
COc1ccc2c(c1)OCC1c3cc(O)c(OCC4CCCCC4)cc3OC21 ; value: 22.2 µM
COCCOC(=O)C1C(c2ccc(F)cc2F)NC(=O)N(c2ccc(CC(=O)O)cc2)C1C ; method: MTT ; value: >72.3 µM
Cc1ccc(C)c(C(C)(Cl)S(=O)(=O)c2cccc[n+]2[O-])c1 ; method: cell count ; value: 23 µg/mL